Measured values: ChEMBL document CHEMBL1141981, “Studies on synthesis and evaluation of quantitative structure-activity relationship of 5-[(3'-chloro-4',4'-disubstituted-2-oxoazetidinyl)(N-nitro)amino]-6-hydroxy-3-alkyl/aryl[1,3]azaphospholo[1,5-a]pyridin-1-yl-phosphorus dichlorides” (2005)

Experiments:
Aspergillus niger = test: Minimum inhibitory concentration against Aspergillus niger
[1] = Minimum inhibitory concentration against Candida albicans; format: functional

Structure (SMILES): CCOC(=O)C1(C(=O)OCC)C(Cl)C(=O)N1N(c1c(O)ccc2c(P(Cl)Cl)pc(C(=O)O)n12)[N+](=O)[O-] (stereo unspecified)
- -Log MIC (Aspergillus niger): 4.11 µg ml-1
- -Log MIC [1]: 4.13 µg ml-1

Structure (SMILES): CCOC(=O)C1(C(=O)CBr)C(Cl)C(=O)N1N(c1c(O)ccc2c(P(Cl)Cl)pc(-c3ccccc3)n12)[N+](=O)[O-] (stereo unspecified)
- -Log MIC (Aspergillus niger): 4.58 µg ml-1
- -Log MIC [1]: 4.63 µg ml-1

Structure (SMILES): CC(=O)C1(C(C)=O)C(Cl)C(=O)N1N(c1c(O)ccc2c(P(Cl)Cl)pc(-c3ccccc3)n12)[N+](=O)[O-] (stereo unspecified)
- -Log MIC (Aspergillus niger): 4.18 µg ml-1
- -Log MIC [1]: 4.19 µg ml-1

Structure (SMILES): CCOC(=O)C1(C(C)=O)C(Cl)C(=O)N1N(c1c(O)ccc2c(P(Cl)Cl)pc(-c3ccccc3)n12)[N+](=O)[O-] (stereo unspecified)
- -Log MIC (Aspergillus niger): 4.46 µg ml-1
- -Log MIC [1]: 4.53 µg ml-1

Structure (SMILES): CCOC(=O)C1(C(=O)OCC)C(Cl)C(=O)N1N(c1c(O)ccc2c(P(Cl)Cl)pc(-c3ccccc3)n12)[N+](=O)[O-] (stereo unspecified)
- -Log MIC (Aspergillus niger): 4.44 µg ml-1
- -Log MIC [1]: 4.5 µg ml-1

Structure (SMILES): CCOC(=O)C1(C(=O)CBr)C(Cl)C(=O)N1N(c1c(O)ccc2c(P(Cl)Cl)pc(C(=O)O)n12)[N+](=O)[O-] (stereo unspecified)
- -Log MIC (Aspergillus niger): 4.17 µg ml-1
- -Log MIC [1]: 4.19 µg ml-1

Structure (SMILES): CC(=O)C1(C(=O)Nc2ccccc2)C(Cl)C(=O)N1N(c1c(O)ccc2c(P(Cl)Cl)pc(-c3ccccc3)n12)[N+](=O)[O-] (stereo unspecified)
- -Log MIC (Aspergillus niger): 4.77 µg ml-1
- -Log MIC [1]: 4.97 µg ml-1

Structure (SMILES): CCOC(=O)C1(C(=O)C#N)C(Cl)C(=O)N1N(c1c(O)ccc2c(P(Cl)Cl)pc(C(=O)O)n12)[N+](=O)[O-] (stereo unspecified)
- -Log MIC (Aspergillus niger): 4.07 µg ml-1
- -Log MIC [1]: 4.08 µg ml-1

Structure (SMILES): CC(=O)C1(C(=O)c2ccccc2)C(Cl)C(=O)N1N(c1c(O)ccc2c(P(Cl)Cl)pc(C(=O)O)n12)[N+](=O)[O-] (stereo unspecified)
- -Log MIC (Aspergillus niger): 4.25 µg ml-1
- -Log MIC [1]: 4.26 µg ml-1

Structure (SMILES): CC(=O)C1(C(=O)Nc2ccccc2)C(Cl)C(=O)N1N(c1c(O)ccc2c(P(Cl)Cl)pc(C(=O)O)n12)[N+](=O)[O-] (stereo unspecified)
- -Log MIC (Aspergillus niger): 4.34 µg ml-1
- -Log MIC [1]: 4.37 µg ml-1

Structure (SMILES): CCOC(=O)C1(C(=O)C#N)C(Cl)C(=O)N1N(c1c(O)ccc2c(P(Cl)Cl)pc(-c3ccccc3)n12)[N+](=O)[O-] (stereo unspecified)
- -Log MIC (Aspergillus niger): 4.37 µg ml-1
- -Log MIC [1]: 4.41 µg ml-1

Structure (SMILES): COC(=O)C1(C(C)=O)C(Cl)C(=O)N1N(c1c(O)ccc2c(P(Cl)Cl)pc(-c3ccccc3)n12)[N+](=O)[O-] (stereo unspecified)
- -Log MIC (Aspergillus niger): 4.25 µg ml-1
- -Log MIC [1]: 4.27 µg ml-1

Structure (SMILES): CC(=O)C1(C(=O)c2ccccc2)C(Cl)C(=O)N1N(c1c(O)ccc2c(P(Cl)Cl)pc(-c3ccccc3)n12)[N+](=O)[O-] (stereo unspecified)
- -Log MIC (Aspergillus niger): 4.69 µg ml-1
- -Log MIC [1]: 4.85 µg ml-1

Structure (SMILES): O=C(O)c1pc(P(Cl)Cl)c2ccc(O)c(N(N3C(=O)C(Cl)C3(C(=O)c3ccccc3)C(=O)c3ccccc3)[N+](=O)[O-])n12 (stereo unspecified)
- -Log MIC (Aspergillus niger): 4.65 µg ml-1
- -Log MIC [1]: 4.75 µg ml-1

Structure (SMILES): CCOC(=O)C1(C(=O)OC)C(Cl)C(=O)N1N(c1c(O)ccc2c(P(Cl)Cl)pc(C(=O)O)n12)[N+](=O)[O-] (stereo unspecified)
- -Log MIC (Aspergillus niger): 4.03 µg ml-1
- -Log MIC [1]: 4.04 µg ml-1

Structure (SMILES): CC(=O)C1(C(C)=O)C(Cl)C(=O)N1N(c1c(O)ccc2c(P(Cl)Cl)pc(C(=O)O)n12)[N+](=O)[O-] (stereo unspecified)
- -Log MIC (Aspergillus niger): 3.97 µg ml-1
- -Log MIC [1]: 4.01 µg ml-1

Structure (SMILES): COC(=O)C1(C(C)=O)C(Cl)C(=O)N1N(c1c(O)ccc2c(P(Cl)Cl)pc(C(=O)O)n12)[N+](=O)[O-] (stereo unspecified)
- -Log MIC (Aspergillus niger): 4 µg ml-1
- -Log MIC [1]: 4.02 µg ml-1

Structure (SMILES): COC(=O)C1(C(=O)OC)C(Cl)C(=O)N1N(c1c(O)ccc2c(P(Cl)Cl)pc(C(=O)O)n12)[N+](=O)[O-] (stereo unspecified)
- -Log MIC (Aspergillus niger): 4.02 µg ml-1
- -Log MIC [1]: 4.04 µg ml-1
